Anti-infective test results gathered from many reports (values: NIAID ChemDB through PubChem).

Shared fields: tests in culture; agent: HIV-1

An empty or dashed field is not shown.

SMILES	method	setting	changes	strain or isolate	measure	cells	value
Cc1cccc(C)c1CNC(=O)[C@H]1N(C(=O)[C@@H](O)[C@H](Cc2ccc3c(c2)OCO3)NC(=O)c2cccc(O)c2C)CSC1(C)C	cytopathic effect / XTT	15% FBS		IIIB	EC50	CEM	0.003 µM
CCc1cc(COCc2cccc(F)c2)c(OC)nc1C	RT activity			LAI	EC50	CEM + CEM-SS	>10 µM
COc1oc([C@H]2C/C(=C/C(C)=C/c3ccc(-c4ccccc4)cc3)CO2)c(C)c(=O)c1C	fluorescence			LAI	EC50	PBMC + LC5-RIC	0.0539 µM
CCN[C@H]1CO[C@@H]2OCC[C@H](OC(=O)N[C@@H](Cc3cccc(OC)c3)[C@H](O)CN(CC(C)C)S(=O)(=O)c3ccc4nc(NC(C)C)sc4c3)[C@@H]21	p24 / luminescence		L10I L33I M36I M46I I54V K55R I62V L63P A71V G73S V82T L90M I93L	NL4-3	EC50	MT-4	0.0077 µM
[Cl][Fe]([Cl])[Cl].c1cc2nc(c1)CNCCNCCNCCNC2	luminescence			NL4-3	EC50	TZM-bl	2.8 µM
COc1oc([C@H]2C/C(=C/C(C)=C/c3ccc(Cl)cc3Cl)CO2)c(C)c(=O)c1C	fluorescence			LAI	EC50	PBMC + LC5-RIC	0.0036 µM
CCc1cc(CCc2nc3ccccc3o2)c(=S)[nH]c1C	p24			IIIB	EC50	H9	<0.1 µM
COc1oc([C@H]2C/C(=C/C(C)=C/c3ccccc3)CO2)c(C)c(=O)c1C	fluorescence			LAI	EC90	PBMC + LC5-RIC	0.074 µM
Cc1c(O)cccc1C(=O)N[C@@H](CSc1ccccc1)[C@H](O)CN1C[C@H]2CCCC[C@H]2C[C@H]1C(=O)NC(C)(C)C	RT activity		PR-L10I M46I I54V L63P V82F L90M	1002-60 PI-resistant	EC50	PBMC	1.235 µM
CCc1cc(COCc2ccccc2)c(S(C)(=O)=O)nc1C	RT activity			LAI	EC50	CEM + CEM-SS	57 µM
CC(C)(C)NC(=O)[C@@H]1C[C@@H]2CCCC[C@@H]2CN1C[C@@H](O)[C@H](Cc1ccccc1)NC(=O)[C@H](CC(N)=O)NC(=O)c1ccc2ccccc2n1	p24		PR-D30N A71V	NL4-3-P22 (PR D30N A71V)	EC90	MT-4	0.01 µM
O=C(c1ccccc1)c1c(O)cc(O)cc1O[C@@H]1O[C@H](CO)[C@@H](O)[C@H](O)[C@H]1O	MTT			IIIB	EC50	C8166	18.06 µg/mL
CCc1cc(COCc2ccc(F)cc2)c(=O)[nH]c1C	RT activity			LAI	EC50	CEM + CEM-SS	>100 µM
Cc1ccnc2c1NC(=O)c1cccnc1N2C1CC1	p24			IIIB	EC90	PBMC	0.15 µM
COc1oc([C@H]2C/C(=C/C(C)=C/c3ccc(OC(C)=O)cc3)CO2)c(C)c(=O)c1C	fluorescence			LAI	EC50	PBMC + LC5-RIC	0.0749 µM
[Cl][Zn][Cl].c1cc2nc(c1)CNCCNCCNCCNC2	luminescence			NL4-3	EC50	TZM-bl	18.6 µM
CN[C@H]1CO[C@@H]2OCC[C@H](OC(=O)N[C@@H](Cc3ccccc3)[C@H](O)CN(CC(C)C)S(=O)(=O)c3ccc4nc(NC5CC5)sc4c3)[C@@H]21	p24 / luminescence			NL4-3	EC50	MT-4	0.0042 µM
COc1cc(C[C@H](C)[C@H](C)Cc2ccc(O)c(O)c2)ccc1O	p24			MN	EC50	PBMC	1.6 µg/mL
CCc1cc(COCc2cccc(F)c2)c(=O)[nH]c1C	RT activity			LAI	EC50	CEM + CEM-SS	>10 µM
CCC[N+]1=CC(c2cc(C3C(=O)N(CC)c4ccc(C(F)(F)F)cc4N(c4ccccc4)C3=O)cc(OC)c2O)C=N1	luciferase			NL4-3	EC50		0.07 µM
CC(C)CN(C[C@@H](O)[C@H](Cc1ccccc1)NC(=O)O[C@H]1CCOC1)S(=O)(=O)c1ccc(N)cc1	RT activity			IIIB	EC50	PBMC	0.026 µM
CCc1cc(COCc2ccccc2F)c(=O)[nH]c1C	RT activity			LAI	EC50	CEM + CEM-SS	4.3 µM
CC(C)CN(C[C@@H](O)[C@H](Cc1ccccc1)NC(=O)O[C@H]1CCO[C@H]2OCC[C@H]21)S(=O)(=O)c1ccc2nc(NC3CC3)sc2c1	p24 / luminescence		L10I I15V K20R L24I V32I M36I M46I I54V I62V L63P K70Q V82A L88M	NL4-3	EC50	MT-4	0.034 µM
Cc1ccccc1CNC(=O)[C@H]1N(C(=O)[C@@H](O)[C@H](Cc2ccccc2)NC(=O)c2cccc(O)c2C)CSC1(C)C	RT activity		PR-L10I M46I I54V L63P V82F L90M	1002-60 PI-resistant	EC50	PBMC	0.037 µM
CC(C)CN(C[C@@H](O)[C@H](Cc1ccccc1)NC(=O)O[C@H]1CCOC1)S(=O)(=O)c1ccc(N)cc1	p24 / luminescence		L10F K20T D30N K45I A71V V77I	NL4-3	EC50	MT-4	0.059 µM
Cc1cn([C@H]2C[C@H](N=[N+]=[N-])[C@@H](CO)O2)c(=O)[nH]c1=O	p24			IIIB Subtype B	EC50	PBMC	0.0011 µM
COc1cc(/C=C/C(=O)O[C@@H]2Cc3c(O)cc(O)cc3O[C@@H]2c2ccc(O)c(O)c2)ccc1O	MTT			IIIB	EC50	C8166	15.85 µg/mL
Nc1ccn([C@H]2CC[C@@H](CO)O2)c(=O)n1	cytopathic effect / MTT			IIIB	EC50	MT-4	0.09 µg/mL
O=C1N(Cc2cccc(C(=O)C(F)(F)F)c2)[C@H](Cc2ccccc2)[C@H](O)[C@@H](O)[C@@H](Cc2ccccc2)N1Cc1cccc(C(=O)C(F)(F)F)c1				RF	EC90	MT-2	33 µM
COc1cccc(C[C@H](NC(=O)c2cccc(O)c2C)[C@H](O)C(=O)N2CSC(C)(C)[C@H]2C(=O)NCc2c(C)cccc2C)c1	cytopathic effect / XTT	50% human serum		IIIB	EC50	CEM	0.009 µM
[Cl][Mn][Cl].c1c2c3nc4c1CCCC4=NCCNCCNCCN=C3CCC2	luminescence			NL4-3	EC50	TZM-bl	1.9 µM
CCc1cc(CCc2nc3c(Cl)ccc(Cl)c3o2)c(=O)[nH]c1C	p24			IIIB	EC50	H9	<0.025 µM
O=C(O)[C@@H](CC1CCC1)N1C[C@H](CN2CCC(CCCc3ccccc3)CC2)[C@@H](c2ccccc2)C1				BaL	EC95	PBMC	0.008 µM
COc1oc([C@H]2C/C(=C/C(C)=C/c3ccc(C(=O)O)cc3)CO2)c(C)c(=O)c1C	fluorescence			LAI	EC90	PBMC + LC5-RIC	241 µM
O=C1N(Cc2cccnc2)[C@H](Cc2ccccc2)[C@H](O)[C@@H](O)[C@@H](Cc2ccccc2)N1Cc1cccc(-c2ccn[nH]2)c1				RF	EC50	MT-2	<0.094 µM
[Cl][Zn][Cl].c1c2c3nc4c1CCC[C@@H]4NCCNCCNCCN[C@H]3CCC2	luminescence			NL4-3	EC50	TZM-bl	0.27 µM
O=C(O)c1cc(O)cc(O)c1N=Nc1ccc(/C=C/c2ccc(N=Nc3c(O)cc(O)cc3C(=O)O)cc2S(=O)(=O)O)c(S(=O)(=O)O)c1	p24			CLADE A	EC50	PBMC	3.2 µg/mL
CCc1cc(COCc2ccccc2Br)c(=O)[nH]c1C	RT activity			LAI	EC50	CEM + CEM-SS	2.1 µM
CN[C@H]1CO[C@@H]2OCC[C@H](OC(=O)N[C@@H](Cc3cccc(OC)c3)[C@H](O)CN(CC(C)C)S(=O)(=O)c3ccc4nc(NC(C)C)sc4c3)[C@@H]21	p24 / luminescence		L10I N37D G48V I54V L63P G73C I84V L90M	NL4-3	EC50	MT-4	0.051 µM
CCc1cc(COCc2ccc3ccccc3c2)c(OC)nc1C	RT activity			LAI	EC50	CEM + CEM-SS	>10 µM
C=C1COC(c2oc(OC)c(C)c(=O)c2C)C1	fluorescence			LAI	EC50	PBMC + LC5-RIC	>10 µM
[Cl][Zn][Cl].c1cc2c3nc1CNCCNCCNCCNC3CCC2	luminescence			NL4-3	EC50	TZM-bl	1.1 µM
CCC(=O)c1cccc(CN2C(=O)N(Cc3cccc(C(=O)CC)c3)[C@H](Cc3ccccc3)[C@H](O)[C@@H](O)[C@H]2Cc2ccccc2)c1				RF	EC50	MT-2	<0.142 µM
c1cc2c3nc1CNCCNCCNCCNC3CCC2	luminescence			NL4-3	EC50	TZM-bl	0.86 µM
O=C1N(Cc2cccc(-c3ncn[nH]3)c2)[C@H](Cc2ccccc2)[C@H](O)[C@@H](O)[C@@H](Cc2ccccc2)N1Cc1cccc(-c2ncn[nH]2)c1				RF	EC50	MT-2	<0.128 µM
O=C(/C=C/c1ccc(O)cc1)O[C@@H]1Cc2c(O)cc(O)cc2O[C@@H]1c1ccc(O)c(O)c1	MTT			IIIB	EC50	C8166	18.07 µg/mL
CCN1C(=O)C(c2cc(C3C=NN=C3)c(O)cc2O)C(=O)N(c2ccccc2)c2cc(C(F)(F)F)ccc21	luciferase			NL4-3	EC50		0.13 µM
CCc1cc(COCc2ccccc2Br)c(OC)nc1C	RT activity			LAI	EC50	CEM + CEM-SS	>10 µM
CCN1C(=O)C(c2cc(O)cc(-c3cccnc3)c2)C(=O)N(c2ccccc2)c2cc(C(F)(F)F)ccc21	luciferase			NL4-3	EC50		0.48 µM
CC(C)[C@H](C(=O)O)N1C[C@H](CN2CCC(c3ccc(F)cc3)CC2)[C@@H](c2ccccc2)C1				BaL	EC95	PBMC	>3 µM

For reference, 3 entries again:

SMILES	method	setting	changes	strain or isolate	measure	cells	value
CCc1cc(COCc2ccccc2F)c(=O)[nH]c1C	RT activity			LAI	EC50	CEM + CEM-SS	4.3 µM
CCC(=O)c1cccc(CN2C(=O)N(Cc3cccc(C(=O)CC)c3)[C@H](Cc3ccccc3)[C@H](O)[C@@H](O)[C@H]2Cc2ccccc2)c1				RF	EC50	MT-2	<0.142 µM
[Cl][Mn][Cl].c1c2c3nc4c1CCCC4=NCCNCCNCCN=C3CCC2	luminescence			NL4-3	EC50	TZM-bl	1.9 µM

Lines come from different laboratories, so protocols vary. ECn: concentration that inhibits the pathogen or its effect by n%.